Results of unrelated studies side by side (data: NIAID ChemDB).

ECn: concentration that inhibits the pathogen or its effect by n%. CCn: concentration that lowers growth or viability of the cells by n%. Blank or dashed fields: not listed here. Percent inhibition refers to the dose given; in toxicity tests it is the harm to the cells. Conditions beyond the fields shown may differ between rows. ICn: concentration for n% inhibition. MIC50, MIC90 and the like: level of inhibition, or share of isolates inhibited.

| SMILES | organism | method | test | protein | strain or isolate | read-out | cell line | dose | result |
|---|---|---|---|---|---|---|---|---|---|
| CN1C(=O)c2c(c3cccnc3n(O)c2=O)NC1c1cccc(Oc2ccccc2)c1 | - | - | toxicity | - | - | CC50 | HeLa | - | <100 µM |
| CCOC(=O)c1cnc(NCCCCNc2ccnc3cc(Cl)ccc23)nc1C | Cryptococcus neoformans | - | culture | - | ATCC 28957 | MIC99 | - | - | 1.4 µg/mL |
| O=c1cc(-c2cccc(CO)c2)c2cccnc2n1O | - | - | toxicity | - | - | CC50 | HeLa | - | <100 µM |
| O=S(=O)([O-])c1cc(S(=O)(=O)[O-])c2cc(NS(=O)(=O)c3ccccc3)ccc2c1 | Adenovirus | cytopathic effect | culture | - | TYPE 3 | inhibition | Human amnion AV3 cells | 5 µg/mL | 0% |
| C=CCc1ccc(O)c(OC)c1 | Candida albicans | turbidity | culture | - | 2883 | MIC90 | - | - | 500 µg/mL |
| O=S(=O)(O)c1cc(O)c2c(O)cc(S(=O)(=O)O)cc2c1 | Rhinovirus | cytopathic effect | culture | - | - | inhibition | Human embryonic lung cells | 5 µg/mL | 10% |
| Oc1cccc(C=Nc2ccccc2O)c1 | Cryptococcus neoformans | - | culture | - | 5396 | MIC99 | - | - | 5.7 µg/mL |
| Cc1cc(CCCOc2c(C)cc(-c3noc(C(F)(F)F)n3)cc2C)on1 | Rhinovirus | cytopathic effect / visual reading | culture | - | Isolate 28 | EC50 | OHIO HELA-I | - | 0.02 µg/mL |
| Nc1cc(S(=O)(=O)[O-])cc2cc(S(=O)(=O)[O-])ccc12 | Adenovirus | cytopathic effect | culture | - | TYPE 3 | inhibition | Human amnion AV3 cells | 5 µg/mL | 0% |
| O=c1cc(-c2ccc3ccccc3c2)c2cccnc2n1O | - | - | toxicity | - | - | CC50 | HeLa | - | <100 µM |
| Oc1ccccc1C=Nc1ccccc1O | Cryptococcus neoformans | - | culture | - | 96806 | MIC99 | - | - | 8 µg/mL |
| CCOC(=O)c1ccc(OCCC2CCN(c3ccc(C)nn3)CC2)cc1 | Rhinovirus | neutral red | culture | - | FO2-2547 (ICAM-1 receptor group 70) | EC50 | KB | - | 0.197 µM |
| OCc1ccc(-c2cncc(N3CCN(c4ccc(F)cc4)CC3)n2)cc1 | Cytomegalovirus | - | target | UL97 kinase | - | inhibition | - | 1 µM | <50% |
| Fc1ccc(N2CCCCC2)c(NC(=S)c2ccncc2)c1 | - | kinase activity | host protein | WEE1 | - | inhibition | - | 10 µM | -2.7% |
| COc1ccccc1N1CCN(c2cncc(-c3ccsc3)n2)CC1 | Cytomegalovirus | - | target | UL97 kinase | - | IC50 | - | - | <100 µM |
| O=S(=O)([O-])c1cc(O)c2ccccc2c1 | Herpes simplex virus | cytopathic effect | culture | - | - | inhibition | Human amnion AV3 cells | 5 µg/mL | 0% |
| Oc1ccccc1N=Cc1ccccc1 | Cryptococcus neoformans | - | culture | - | C-3-1 | MIC99 | - | - | 2 µg/mL |
| CC(C)(C)c1ccc(-c2cncc(N3CCN(c4cccc(C(F)(F)F)c4)CC3)n2)cc1 | Cytomegalovirus | - | target | UL97 kinase | - | IC50 | - | - | <100 µM |
| Cc1nc(NCCCCNc2ccnc3cc(Cl)ccc23)nc(-c2ccccc2)c1C(=O)OC(C)C | Cryptococcus gattii | - | culture | - | L24/01 | MIC99 | - | - | 8 µg/mL |
| Cc1ccccc1-c1cncc(N2CCN(c3cccc(Cl)c3)CC2)n1 | Cytomegalovirus | - | target | UL97 kinase | - | IC50 | - | - | <100 µM |
| O=S(=O)([O-])c1ccc(O)cc1 | Adenovirus | cytopathic effect | culture | - | TYPE 3 | inhibition | Human embryonic lung cells | 10 µg/mL | 0% |
| COc1ccc(-c2cncc(N3CCN(c4ccc(F)cc4)CC3)n2)cc1OC | Cytomegalovirus | - | target | UL97 kinase | - | inhibition | - | 1 µM | <50% |
| O=C(c1cccc(-c2cc(=O)n(O)c3ncccc23)c1)N1CCCC1 | - | - | toxicity | - | - | CC50 | HeLa | - | <100 µM |
| CCOc1ccc(-c2cncc(N3CCN(c4ccc(F)cc4)CC3)n2)cc1 | Cytomegalovirus | - | target | UL97 kinase | - | inhibition | - | 10 µM | >15% |
| Nc1ccc2cc([N+](=O)[O-])cc(S(=O)(=O)[O-])c2c1 | Adenovirus | cytopathic effect | culture | - | TYPE 3 | inhibition | Human amnion AV3 cells | 10 µg/mL | 0% |
| Oc1ccccc1N=Cc1ccc(F)cc1 | Cryptococcus gattii | - | culture | - | L-28/02 | MIC99 | - | - | 16 µg/mL |
| NCS(=O)(=O)O | Herpes simplex virus | cytopathic effect | culture | - | - | inhibition | Human conjunctiva cells | 5 µg/mL | 0% |
| Cc1nc(NCCCCNc2ccnc3cc(Cl)ccc23)nc(-c2ccccc2[N+](=O)[O-])c1C(=O)OC(C)C | Cryptococcus neoformans | - | culture | - | F-10 | MIC99 | - | - | 4 µg/mL |
| CCC(CC)[C@H](NC(C)=O)[C@@H]1[C@H](O)[C@@H](C(=O)O)C[C@H]1N=C(N)N | Influenza A virus | - | culture | - | Influenza A/Sydney/05/97 (H3N2) | EC50 | MDCK | - | 0.19 µM |
| O=S(=O)([O-])c1cc(NS(=O)(=O)c2ccccc2)c2c(S(=O)(=O)[O-])cc(S(=O)(=O)[O-])cc2c1 | Herpes simplex virus | cytopathic effect | culture | - | - | inhibition | Human amnion AV3 cells | 10 µg/mL | 0% |

Repeating the first 4 entries:

| SMILES | organism | method | test | protein | strain or isolate | read-out | cell line | dose | result |
|---|---|---|---|---|---|---|---|---|---|
| CN1C(=O)c2c(c3cccnc3n(O)c2=O)NC1c1cccc(Oc2ccccc2)c1 | - | - | toxicity | - | - | CC50 | HeLa | - | <100 µM |
| CCOC(=O)c1cnc(NCCCCNc2ccnc3cc(Cl)ccc23)nc1C | Cryptococcus neoformans | - | culture | - | ATCC 28957 | MIC99 | - | - | 1.4 µg/mL |
| O=c1cc(-c2cccc(CO)c2)c2cccnc2n1O | - | - | toxicity | - | - | CC50 | HeLa | - | <100 µM |
| O=S(=O)([O-])c1cc(S(=O)(=O)[O-])c2cc(NS(=O)(=O)c3ccccc3)ccc2c1 | Adenovirus | cytopathic effect | culture | - | TYPE 3 | inhibition | Human amnion AV3 cells | 5 µg/mL | 0% |